# Potato spindle tuber viroid, stem 15: variant abundance in plants

Source: Wu et al. 2024 (doi:10.1371/journal.ppat.1012142), supplementary data.

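A pool of all variants was put on leaves of three Nicotiana benthamiana plants. Samples came from the inoculated region at 5 days, the leaf margin at 10 and upper systemic leaves at 12.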

The pool varies stem 15 of the PSTVd intermediate strain in the pattern CUGGAGCGAUNGNNUNNG; wild type is CUGGAGCGAUCGCUUCGG (upper and lower strand joined, each 5' to 3', the first 9 letters being the upper strand).

Values are reads per thousand in the sample; higher means more abundant, 0 means not found. Each value is the mean of three plants. "Pool" is the share in the plasmid pool used as inoculum, on the same scale. The inoculated region was read from the minus strand, the other sites from the plus strand. For reference, wild type rose from 10.2 per thousand in the pool to 285, 367, 312 (inoculated region), 785, 865, 782 (leaf margin) and 854, 898, 915 (systemic leaves). With 36,693-63,082 reads a sample, very low values are single reads. Sequences that differ at fixed positions probably stem from PCR or sequencing errors, and defective variants can be carried along by functional ones.

* CUAGAGCGAUUGCAUUGG (pool 0.0162) -> inoculated region 0; leaf margin 0; systemic leaves 0
* CUGGAGCGAUUGUGUCCG (pool 0.986) -> inoculated region 0.320; leaf margin 0.0122; systemic leaves 0
* CUGGAGCGAUAGAAUAUG (pool 1.02) -> inoculated region 0.325; leaf margin 0.0881; systemic leaves 0
* CUGGAGCGUUAGACUAAG (pool 0.0162) -> inoculated region 0; leaf margin 0; systemic leaves 0
* CUGGAGCGAUAGUAUUGG (pool 1.03) -> inoculated region 0.612; leaf margin 0.0610; systemic leaves 0
* CUGGAGCGAUUGACUGGG (pool 0.954) -> inoculated region 0.265; leaf margin 0.0345; systemic leaves 0
* CUGGAGCGAUAGCCUUGG (pool 0.743) -> inoculated region 0.329; leaf margin 0.0548; systemic leaves 0
* CUGGAGCGAUGGGUUUUG (pool 1.65) -> inoculated region 0.920; leaf margin 0.0723; systemic leaves 0
* CUGGAGCGAUCGCCUGAG (pool 0.921) -> inoculated region 0.388; leaf margin 0.0276; systemic leaves 0
* CUUGAGCGAUGGACUAAG (pool 0.0162) -> inoculated region 0; leaf margin 0; systemic leaves 0
* CUGGAGCGAUAGUUUAUG (pool 1.62) -> inoculated region 0.882; leaf margin 0.0808; systemic leaves 0
* CUGGAGCGAUUGCAUCCG (pool 0.646) -> inoculated region 0.287; leaf margin 0.0572; systemic leaves 0
* CUGGAGCGAUAGCUUGUG (pool 1.00) -> inoculated region 0.299; leaf margin 0.0365; systemic leaves 0
* CUGGAGCGAUUGGGUGGG (pool 0.727) -> inoculated region 0.253; leaf margin 0.0601; systemic leaves 0
* CUGGAGCGAUAGCGUGAG (pool 0.792) -> inoculated region 0.288; leaf margin 0.0388; systemic leaves 0
* CUGGAGCGAUGGAUUAGG (pool 0.873) -> inoculated region 0.245; leaf margin 0.0191; systemic leaves 0
* CUGGAGAGAUCGUUUCUG (pool 0.0162) -> inoculated region 0; leaf margin 0; systemic leaves 0
* CUGGAGCGAUUGGCUACG (pool 0.986) -> inoculated region 0.326; leaf margin 0.0356; systemic leaves 0
* CUGGAGCGAUCGCAUUGG (pool 0.857) -> inoculated region 0.262; leaf margin 0.0273; systemic leaves 0
* CUGGAGCGAUCGGAUUUG (pool 1.08) -> inoculated region 0.602; leaf margin 0.0334; systemic leaves 0

The first 2 entries again:

sequence	pool	inoculated region	leaf margin	systemic leaves
CUAGAGCGAUUGCAUUGG	0.0162	0	0	0
CUGGAGCGAUUGUGUCCG	0.986	0.320	0.0122	0